# Patent US9549941B2, “Compositions and methods for treating hepatitis C virus” (priority 2011, dated 2017)
# Test system: 1b con-1-based chimeric replicon containing 5a NS5B S282T
# Type: cell-based, hepatitis C virus
# Settings: genotype 5a, S282T from corresponding wild-type
structure (smiles),measurement,value
"NC(=O)c1ncn([C@@H]2O[C@H](CO)[C@@H](O)[C@H]2O)n1 [Ribavirin, 1-β-D-ribofuranosyl-1H-1,2,4-triazole-3-carboxamide, reference compound]",Fold Change,0.3
